Anti-infective test results gathered from many reports (values: NIAID ChemDB through PubChem).

All rows: whole-cell or culture tests; agent: Candida albicans; endpoint: MIC

An empty or dashed field is not shown. Two numbers with a dash give a range or band. Rows are shuffled and stem from different studies.

{"structure": "CCC(C)n1ncn(-c2ccc(N3CCN(c4ccc(OC[C@H]5CO[C@](Cn6cncn6)(c6ccc(Cl)cc6Cl)O5)cc4)CC3)cc2)c1=O", "strain": "Clinical isolates", "method": "broth dilution", "value": "0.03 µg/mL"}
{"structure": "CCCCCCCCCCCCCCCCCCCC[n+]1ccccc1.[Br-]", "strain": "CCH442", "value": "3.4 µM"}
{"structure": "O=c1c(O)cc([C@H]2Oc3cc(O)cc(O)c3C[C@H]2O)cc2c([C@H]3Oc4cc(O)cc(O)c4C[C@H]3O)cc(O)c(O)c12", "strain": "NCTC 3179", "method": "turbidity", "value": "1024 µg/mL"}
{"structure": "C[C@@H](c1ncncc1F)[C@](O)(Cn1cncn1)c1ccc(F)cc1F", "strain": "Clinical isolates", "method": "broth dilution", "value": "0.03 µg/mL"}
{"structure": "CC(CCC(=O)NCCC[N+](C)(C)CCCS(=O)(=O)[O-])C1CCC2C3C(C[C@H](O)C12C)C1(C)CC[C@@H](O)C[C@H]1C[C@H]3O", "value": ">500 µg/mL"}
{"structure": "C[C@H]1[C@H](O)[C@@H](C)/C=C/C=C/C=C/C=C/C=C/C=C/C=C/[C@H](O[C@@H]2O[C@H](C)[C@@H](O)[C@H](N)[C@@H]2O)C[C@@H]2O[C@](O)(C[C@@H](O)C[C@@H](O)CC[C@H](O)[C@@H](O)C[C@@H](O)CC(=O)O[C@H]1C)C[C@H](O)[C@H]2C(=O)O", "strain": "Clinical isolates", "method": "broth dilution", "value": "0.5 µg/mL"}
{"structure": "NC(=O)OC[C@H](O)[C@@H](O)[C@H](N)C(=O)N[C@H](C(=O)O)[C@H]1O[C@@H](n2cc(C(=O)O)c(=O)[nH]c2=O)[C@H](O)[C@@H]1O", "strain": "ATCC 10231", "value": ">100 µg/mL"}
{"structure": "C=CCc1ccc(O)c(-c2ccc(O)c(CC=C)c2)c1", "strain": "YL 339", "method": "broth dilution", "value": "64 µg/mL"}
{"structure": "Nc1[nH]c(=O)ncc1F", "value": "0.5 µg/mL"}
{"structure": "CCCCCCCCCCCCCCCCCC[n+]1ccccc1.[Cl-]", "strain": "CCH442", "value": "4.2 µM"}
{"structure": "COC(=O)C1=CC[C@@]23CC[C@@H]([C@@](C)(/C=C/C=C(\\C)C(=O)O)OC2=O)[C@@]3(O)CC1", "strain": "ATCC 10231", "value": "1.56 µg/mL"}
{"structure": "CCCCCCCCCCCCO", "value": "135 µg/mL"}
{"structure": "CCC(C)n1ncn(-c2ccc(N3CCN(c4ccc(OC[C@H]5CO[C@](Cn6cncn6)(c6ccc(Cl)cc6Cl)O5)cc4)CC3)cc2)c1=O", "strain": "A28976", "value": "16 µg/mL"}
{"structure": "CCOC(=O)C1=C(N)N(c2nc(-c3ccc(Cl)cc3)cs2)C2=C(C(=O)CCC2)C1c1cc2ccccc2nc1F", "strain": "MTCC 227", "method": "broth dilution", "value": "100 µg/mL"}
{"structure": "COc1ccc(C(=O)/C=C/c2ccc(N(C)C)cc2)cc1OC", "strain": "ATCC 10231", "value": ">50 µg/mL"}
{"structure": "N#CC1=C(N)N(c2nc(-c3ccc(Cl)cc3)cs2)C2=C(C(=O)CCC2)C1c1cc2ccccc2nc1F", "strain": "MTCC 227", "method": "broth dilution", "value": "500 µg/mL"}
{"structure": "C[C@@H]1CCC2(C(=O)O)CC[C@]3(C)C(=CCC4C5(C)CCC(O)[C@@](C)(CO)C5CCC43C)C2[C@]1(C)O", "strain": "IFO1061", "value": "50 µg/mL"}
{"structure": "CCC(C)CCCCCCCCCCC(=O)N[C@H]1C[C@@H](O)[C@@H](O)NC(=O)C2[C@@H](O)[C@@H](C)CN2C(=O)C(CO)NC(=O)C([C@H](O)C(O)c2ccc(O)cc2)NC(=O)NC(=O)[C@@H]2C[C@@H](O)CN2C(=O)[C@H]([C@@H](C)O)NC1=O", "value": "1 µg/mL"}
{"structure": "Cc1ccc(S(=O)(=O)[O-])cc1.c1cc[nH+]cc1", "strain": "CCH442", "value": ">400 µM"}
{"structure": "C[C@H]1[C@H](O)[C@@H](C)/C=C/C=C/C=C/C=C/C=C/C=C/C=C/[C@H](O[C@@H]2O[C@H](C)[C@@H](O)[C@H](N)[C@@H]2O)C[C@@H]2O[C@](O)(C[C@@H](O)C[C@@H](O)CC[C@H](O)[C@@H](O)C[C@@H](O)CC(=O)O[C@H]1C)C[C@H](O)[C@H]2C(=O)O", "value": "0.125–2 µg/mL"}
{"structure": "Cc1ccc[n+](CCCCC(C)CCCC(C)CCCC(C)C)c1.O=C([O-])C(F)(F)F", "strain": "CCH442", "value": "7 µM"}
{"structure": "COC1=CC(=O)C[C@@H](C)[C@]12Oc1c(Cl)c(OC)cc(OC)c1C2=O", "strain": "MTCC 227", "method": "broth dilution", "value": "1000 µg/mL"}
{"structure": "O=C(/C=C/c1ccc(Cl)cc1)c1ccc(Cl)cc1", "strain": "ATCC 10231", "value": ">50 µg/mL"}
{"structure": "Nc1c(Br)cc(Br)cc1CNC1CCC(O)CC1", "strain": "NCCLS67/ ATCC 90029", "method": "broth dilution", "value": "1 µg/mL"}
{"structure": "CCCCCCCCCCCC(=O)OC1CC[C@@]2(C)C(=CCC3C2CC[C@@]2(C)C3CC[C@@H]2[C@H](C)CCCC(C)C)C1", "value": ">100 µg/mL"}
{"structure": "O=C/C=C/c1ccccc1", "strain": "STD no 41", "value": "300 µg/mL"}
{"structure": "N#CC1=C(N)N(c2nc(-c3ccccc3)cs2)C2=C(C(=O)CCC2)C1c1cc2ccccc2nc1F", "strain": "MTCC 227", "method": "broth dilution", "value": "500 µg/mL"}
{"structure": "CCN1C[C@]2(COC)CC[C@H](OC)[C@]34C1[C@@](O)([C@@H](OC)[C@H]23)[C@@]1(O)C[C@H](OC)C2C[C@@H]4[C@@H]1[C@H]2OC(C)=O", "value": "0.25 µg/mL"}
{"structure": "O=C1CCC(c2ccccc2)C(=O)N1CCCN1CCN(c2ncccn2)CC1", "strain": "DSM 1386", "value": ">100 µM"}
{"structure": "COc1cccc(/C=C/C(=O)c2ccc(Br)cc2)c1", "strain": "ATCC 10231", "value": ">50 µg/mL"}
{"structure": "C[C@H]1[C@H](O)[C@@H](C)/C=C/C=C/C=C/C=C/C=C/C=C/C=C/[C@H](O[C@@H]2O[C@H](C)[C@@H](O)[C@H](N)[C@@H]2O)C[C@@H]2O[C@](O)(C[C@@H](O)C[C@@H](O)CC[C@H](O)[C@@H](O)C[C@@H](O)CC(=O)O[C@H]1C)C[C@H](O)[C@H]2C(=O)O", "method": "broth dilution", "value": "4.6 µM"}
{"structure": "CCOC(=O)C1=C(N)N(c2nc(-c3ccc(Cl)cc3)cs2)C2=C(C(=O)CCC2)C1c1cc2cc(Cl)ccc2nc1F", "strain": "MTCC 227", "method": "broth dilution", "value": "500 µg/mL"}
{"structure": "CCC(C)(C)c1ccc(CC(C)CN2C[C@@H](C)O[C@@H](C)C2)cc1", "value": "4 µg/mL"}
{"structure": "O=C1CCC(c2ccccc2)C(=O)N1CCCCN1CCN(c2ccccc2O)CC1", "strain": "DSM 1386", "value": ">100 µM"}
{"structure": "N#CC(C#N)C(CC(=O)c1ccccc1)c1cc2ccccc2nc1Cl", "strain": "ATCC 10231", "value": ">50 µg/mL"}
{"structure": "O=C1CCC(c2ccccc2)C(=O)N1CCCCN1CCN(c2ccc(F)cc2)CC1", "strain": "DSM 1386", "value": ">100 µM"}
{"structure": "CCC(C)n1ncn(-c2ccc(N3CCN(c4ccc(OC[C@H]5CO[C@](Cn6cncn6)(c6ccc(Cl)cc6Cl)O5)cc4)CC3)cc2)c1=O", "value": "0.002–0.016 µg/mL"}
{"structure": "CCCCCCCCCCCC(=O)OCC(COC(=O)CCCCCCCCCCC)OC(=O)CCCCCCCCCCC", "value": ">1000 µg/mL"}
{"structure": "CCCCCCCCCCCCCCCC[n+]1ccccc1", "strain": "CCH442", "value": "1.9 µM"}
{"structure": "CCCCCCCCCCCCN", "value": "112 µg/mL"}
{"structure": "Cl.NCCS", "strain": "MTCC 183", "value": ">1000 µg/mL"}
{"structure": "CCOC(=O)C1=C(N)N(c2nc(-c3ccc(Cl)cc3)cs2)C2=C(C(=O)CCC2)C1c1cc2cc(C)ccc2nc1F", "strain": "MTCC 227", "method": "broth dilution", "value": "200 µg/mL"}
{"structure": "O=C1CCC(c2ccccc2)C(=O)N1CCCCN1CCN(c2ccccn2)CC1", "strain": "DSM 1386", "value": ">100 µM"}
{"structure": "COc1ccc(C(=O)CC(c2ccc3ccccc3c2)C(C#N)C#N)c(OC)c1", "strain": "ATCC 10231", "value": ">50 µg/mL"}
{"structure": "COc1ccc2nc(F)c(C3C(C#N)=C(N)N(c4nc(-c5ccccc5)cs4)C4=C3C(=O)CCC4)cc2c1", "strain": "MTCC 227", "method": "broth dilution", "value": "500 µg/mL"}
{"structure": "CCCCCCCCC/C=C\\CCCCC(=O)O", "value": "49 µg/mL"}
{"structure": "C[C@@H]1[C@H](O)[C@@H](C)/C=C/C=C/CC/C=C/C=C/C=C/C=C/C(O[C@H]2O[C@H](C)[C@@H](O)[C@H](N)[C@@H]2O)CC2O[C@](O)(CC(O)C(O)CCC(O)CC(O)CC(O)CC(=O)O[C@H]1C)CC(O)C2C(=O)O", "strain": "MTCC 227", "value": "100 µg/mL"}
{"structure": "CCN1C[C@]2(COC)CC[C@H](O)[C@]34C1[C@@](O)([C@@H](OC)[C@H]23)[C@@]1(O)C[C@H](OC)C2C[C@@H]4[C@@H]1[C@H]2O", "value": "4 µg/mL"}
{"structure": "CCCCCCCCCCCCCC(=O)O", "value": "547 µg/mL"}
{"structure": "CCN1C[C@]2(COC)CC[C@H](OC)[C@]34C1[C@@](O)([C@@H](OC)[C@H]23)[C@@]1(O)C[C@H](OC)C2C[C@@H]4[C@@H]1[C@H]2OC(C)=O", "value": "4 µg/mL"}
{"structure": "C[C@H]1[C@H](O)[C@@H](C)/C=C/C=C/C=C/C=C/C=C/C=C/C=C/[C@H](O[C@@H]2O[C@H](C)[C@@H](O)[C@H](N)[C@@H]2O)C[C@@H]2O[C@](O)(C[C@@H](O)C[C@@H](O)CC[C@H](O)[C@@H](O)C[C@@H](O)CC(=O)O[C@H]1C)C[C@H](O)[C@H]2C(=O)O", "value": "0.06 µg/mL"}

For reference, 6 entries again:

structure	strain	method	value
COc1ccc2nc(F)c(C3C(C#N)=C(N)N(c4nc(-c5ccccc5)cs4)C4=C3C(=O)CCC4)cc2c1	MTCC 227	broth dilution	500 µg/mL
CCCCCCCCCCCCCCCCCC[n+]1ccccc1.[Cl-]	CCH442	-	4.2 µM
CCOC(=O)C1=C(N)N(c2nc(-c3ccc(Cl)cc3)cs2)C2=C(C(=O)CCC2)C1c1cc2cc(Cl)ccc2nc1F	MTCC 227	broth dilution	500 µg/mL
CCCCCCCCCCCCCCCCCCCC[n+]1ccccc1.[Br-]	CCH442	-	3.4 µM
COC(=O)C1=CC[C@@]23CC[C@@H]([C@@](C)(/C=C/C=C(\C)C(=O)O)OC2=O)[C@@]3(O)CC1	ATCC 10231	-	1.56 µg/mL
N#CC1=C(N)N(c2nc(-c3ccc(Cl)cc3)cs2)C2=C(C(=O)CCC2)C1c1cc2ccccc2nc1F	MTCC 227	broth dilution	500 µg/mL